Results of unrelated studies side by side (data: NIAID ChemDB).

Shared fields: growth or infection tests; organism: Mycobacterium aurum; endpoint: MIC

Blank or dashed fields: not listed here. Conditions beyond the fields shown may differ between rows.

SMILES	changes	read by	strain	result
CC(C)(C)n1cc(C(=O)O)c(=O)c2cc(F)c(N3CCC(N)C3)nc21	-	-	ATCC23366	≤0.03 µg/mL
NNC(=O)c1ccncc1	-	-	-	2 µg/mL
O=C(O)c1cn(C2CC2)c2cc(N3CCNCC3)c(F)cc2c1=O	-	broth dilution / turbidity	SB66	0.02 µg/mL
CC(=O)O[C@H]1CC[C@]2(C)[C@H]3COC(=O)C3=CC[C@H]2C1(C)C	-	-	-	>128 µg/mL
CO[C@@H]1C[C@@H](C[C@H]2CC[C@H](C)[C@H]([C@@H](C)C(=O)O)O2)O[C@]2(O[C@](C)([C@H]3CC[C@@](C)([C@@H]4O[C@@H]([C@H]5O[C@@](O)(CO)[C@H](C)C[C@@H]5C)C[C@@H]4C)O3)C[C@H]2C)[C@@H]1C	T532 insertion	resazurin	-	0.32 µg/mL
CCC1CN(c2c(F)cc3c(=O)c(C(=O)O)cn(C4CC4)c3c2OC)CCN1	-	-	ATCC23366	0.06 µg/mL
C=C1[C@@H]2[C@@H](O)C=C(C=O)[C@](O)(C=O)[C@@]2(C)CC[C@@H]1C	-	-	-	>128 µg/mL
NNC(=O)c1ccncc1	-	-	A+	0.03 µg/mL
CC1(C)CCC[C@]2(C)[C@H]3COC(=O)C3=CC[C@@H]12	-	-	-	>128 µg/mL
CC[C@@H](CO)NCCN[C@@H](CC)CO	-	-	-	1 µg/mL
CN[C@@H]1[C@H](O[C@H]2[C@H](O[C@H]3[C@H](O)[C@@H](O)[C@H](N=C(N)N)[C@@H](O)[C@@H]3N=C(N)N)O[C@@H](C)[C@]2(O)C=O)O[C@@H](CO)[C@H](O)[C@H]1O	-	-	A+	0.25 µg/mL
CCN1CCN(c2c(F)cc3c(=O)c(C(=O)O)cn(C4CC4)c3c2OC)CC1	-	-	ATCC23366	0.06 µg/mL
CC1(C)CCC[C@@]2(C)[C@H]1[C@@H](O)C=C(C=O)[C@]2(O)C=O	-	-	-	>128 µg/mL
CC[C@@H](C(=O)[C@@H](C)[C@@H](O)[C@H](C)[C@@H]1O[C@@H]([C@@H](CC)C(=O)O)CC[C@@H]1C)[C@H]1O[C@@]2(C=C[C@@H](O)[C@@]3(CC[C@@](C)([C@H]4CC[C@](O)(CC)[C@H](C)O4)O3)O2)[C@H](C)C[C@@H]1C	G364T	resazurin	-	0.08 µg/mL
C[C@@H]1CN(c2nc3c(cc2F)c(=O)c(C(=O)O)cn3C(C)(C)C)C[C@H](C)N1	-	-	ATCC23366	0.06 µg/mL

Repeating the first 2 entries:

SMILES	changes	read by	strain	result
CC(C)(C)n1cc(C(=O)O)c(=O)c2cc(F)c(N3CCC(N)C3)nc21	-	-	ATCC23366	≤0.03 µg/mL
NNC(=O)c1ccncc1	-	-	-	2 µg/mL